Results of unrelated studies side by side (data: NIAID ChemDB).

Common to all: growth or infection tests

Two numbers with a dash give a range or band. Percent inhibition refers to the dose given; in toxicity tests it is the harm to the cells. Zone: diameter of growth inhibition. A number after MIC or MFC names an inhibition level or a share of isolates. An empty or dashed field is not shown. ECn is the concentration giving n% inhibition of infection, replication or growth. Lines come from different laboratories, so protocols vary.

{"SMILES": "O=C(CCn1ccnc1)c1cccc(C(O)c2ccc(Br)cc2)c1", "method": "broth dilution", "strain or isolate": "RTCC 1377", "read-out": "MIC", "organism": "Candida guilliermondii", "value": "16 µg/mL"}
{"SMILES": "CCC(C)CC(C)CCCCCCCCC(=O)N[C@H]1C[C@@H](O)[C@H](NCCN)NC(=O)[C@@H]2[C@@H](O)CCN2C(=O)[C@H]([C@H](O)CCN)NC(=O)[C@H]([C@H](O)[C@@H](O)c2ccc(O)cc2)NC(=O)[C@@H]2C[C@@H](O)CN2C(=O)[C@H]([C@@H](C)O)NC1=O", "method": "broth dilution", "strain or isolate": "FMR 9474", "read-out": "MIC", "organism": "Candida lusitaniae", "value": "0.25 µg/mL"}
{"SMILES": "CCC(C)CC(C)CCCCCCCCC(=O)N[C@H]1C[C@@H](O)[C@H](NCCN)NC(=O)[C@@H]2[C@@H](O)CCN2C(=O)[C@H]([C@H](O)CCN)NC(=O)[C@H]([C@H](O)[C@@H](O)c2ccc(O)cc2)NC(=O)[C@@H]2C[C@@H](O)CN2C(=O)[C@H]([C@@H](C)O)NC1=O", "method": "broth dilution", "conditions": "pH 4", "strain or isolate": "40 isolates", "read-out": "MIC", "organism": "Candida glabrata", "value": "0.5 µg/mL"}
{"SMILES": "C[C@H]1[C@H](O)[C@@H](C)/C=C/C=C/C=C/C=C/C=C/C=C/C=C/[C@H](O[C@@H]2O[C@H](C)[C@@H](O)[C@H](N)[C@@H]2O)C[C@@H]2O[C@](O)(C[C@@H](O)C[C@@H](O)CC[C@H](O)[C@@H](O)C[C@@H](O)CC(=O)O[C@H]1C)C[C@H](O)[C@H]2C(=O)O", "method": "broth dilution", "read-out": "MIC", "organism": "Candida guilliermondii", "value": "6.25 µg/mL"}
{"SMILES": "CCCCCn1cc[n+](COCCCCCOC[n+]2ccn(CCCCC)c2)c1", "method": "agar diffusion", "strain or isolate": "ATCC 6258", "read-out": "MIC100", "organism": "Candida krusei", "value": "8 µM"}
{"SMILES": "Nc1nc(/N=C/c2c(O)ccc3ccccc23)n[nH]1", "method": "agar diffusion / agar", "tested at": "200 µg/mL", "read-out": "inhibition", "organism": "Candida glabrata", "value": "39%"}
{"SMILES": "O=C(CCn1ccnc1)c1ccc(Cl)cc1", "method": "broth dilution", "strain or isolate": "RTCC 1019", "read-out": "MIC", "organism": "Candida kefyr", "value": "16 µg/mL"}
{"SMILES": "OB1OC(N2CCCCC2)c2ccccc21", "method": "turbidity", "read-out": "MFC", "organism": "Candida tenuis", "value": "62.5 µg/mL"}
{"SMILES": "O=C1S/C(=C\\c2ccoc2)C(=O)N1CC(O)(Cn1nccn1)c1ccc(F)cc1F", "strain or isolate": "Fluconazole-resistant 100", "read-out": "MIC80", "organism": "Candida colliculosa", "value": "37 µg/mL"}
{"SMILES": "CCCCCOc1ccc(-c2ccc(-c3ccc(C(=O)N[C@H]4C[C@@H](O)[C@@H](O)NC(=O)[C@@H]5[C@@H](O)[C@@H](C)CN5C(=O)[C@H]([C@H](C)O)NC(=O)[C@H]([C@H](O)[C@@H](O)c5ccc(O)cc5)NC(=O)[C@@H]5C[C@@H](O)CN5C(=O)[C@H]([C@H](C)O)NC4=O)cc3)cc2)cc1", "read-out": "MIC50", "organism": "Candida kefyr", "value": "0.015–0.5 µg/mL"}
{"SMILES": "C[C@H]1[C@H](O)[C@@H](C)/C=C/C=C/C=C/C=C/C=C/C=C/C=C/[C@H](O[C@@H]2O[C@H](C)[C@@H](O)[C@H](N)[C@@H]2O)C[C@@H]2O[C@](O)(C[C@@H](O)C[C@@H](O)CC[C@H](O)[C@@H](O)C[C@@H](O)CC(=O)O[C@H]1C)C[C@H](O)[C@H]2C(=O)O", "tested at": "50 µg/mL", "strain or isolate": "NCIM 3467", "read-out": "zone", "organism": "Candida rugosa", "value": "21 mm"}
{"SMILES": "CCC(C)n1ncn(-c2ccc(N3CCN(c4ccc(OC[C@H]5CO[C@](Cn6cncn6)(c6ccc(Cl)cc6Cl)O5)cc4)CC3)cc2)c1=O", "method": "agar diffusion", "tested at": "100 µg", "read-out": "zone", "organism": "Candida utilis", "value": "15 mm"}
{"SMILES": "C=CC(C)(C)c1cc(C2CC(=O)c3c(cc(O)c(CC=C(C)C)c3O)O2)c(O)cc1O", "method": "agar diffusion / agar", "tested at": "2 mg/mL", "strain or isolate": "35234", "read-out": "zone", "organism": "Candida glabrata", "value": "14 mm"}
{"SMILES": "C[C@H]1[C@H](O)[C@@H](C)/C=C/C=C/C=C/C=C/C=C/C=C/C=C/[C@H](O[C@@H]2O[C@H](C)[C@@H](O)[C@H](N)[C@@H]2O)C[C@@H]2O[C@](O)(C[C@@H](O)C[C@@H](O)CC[C@H](O)[C@@H](O)C[C@@H](O)CC(=O)O[C@H]1C)C[C@H](O)[C@H]2C(=O)O", "method": "agar diffusion", "tested at": "100 µg/disc", "strain or isolate": "Cp2", "read-out": "zone", "organism": "Candida parapsilosis", "value": "26 mm"}
{"SMILES": "O=C(CN1CCOCC1)Nc1nc(-c2ccccc2)cc(-c2ccc(F)cc2)n1", "strain or isolate": "Strains 7 and 7", "read-out": "MIC", "organism": "Candida spp.", "value": "12.5 µg/mL"}
{"SMILES": "OB1OCc2cc(F)ccc21", "method": "turbidity", "read-out": "MFC", "organism": "Candida tenuis", "value": "0.9 µg/mL"}
{"SMILES": "CCC(C)n1ncn(-c2ccc(N3CCN(c4ccc(OC[C@H]5CO[C@](Cn6cncn6)(c6ccc(Cl)cc6Cl)O5)cc4)CC3)cc2)c1=O", "method": "broth dilution", "conditions": "pH 4", "strain or isolate": "40 isolates", "read-out": "EC90", "organism": "Candida glabrata", "value": ">16 µg/mL"}
{"SMILES": "OB1OC(N2CCOCC2)c2ccccc21", "method": "turbidity", "read-out": "MFC", "organism": "Candida tenuis", "value": "62.5 µg/mL"}
{"SMILES": "Clc1ccc(COC(Cn2ccnc2)c2ccc(Cl)cc2Cl)c(Cl)c1", "method": "broth dilution", "conditions": "pH 4", "strain or isolate": "40 isolates", "read-out": "EC90", "organism": "Candida glabrata", "value": "16 µg/mL"}
{"SMILES": "CCCCCCCCCCCCn1cc[n+](COCCOC[n+]2ccn(CCCCCCCCCCCC)c2)c1", "method": "agar diffusion", "strain or isolate": "ATCC 6258", "read-out": "MIC100", "organism": "Candida krusei", "value": "2 µM"}
{"SMILES": "Nc1scc2c1c(=O)oc1ccccc12", "method": "broth dilution", "strain or isolate": "ATCC 200950", "read-out": "MIC", "organism": "Candida lusitaniae", "value": "2 µg/mL"}
{"SMILES": "CCCCCCCCCn1cc[n+](COCCOC[n+]2ccn(CCCCCCCCC)c2)c1", "method": "agar diffusion", "strain or isolate": "ATCC 6258", "read-out": "MIC100", "organism": "Candida krusei", "value": "2 µM"}
{"SMILES": "Nc1nc(/N=C/c2ccc[nH]2)n[nH]1", "method": "agar diffusion / agar", "tested at": "200 µg/mL", "read-out": "inhibition", "organism": "Candida glabrata", "value": "60%"}
{"SMILES": "Cc1cc(=O)oc2cc(OCC(O)Cn3nnc4ccccc43)cc(OCC(O)Cn3nnc4ccccc43)c12", "read-out": "MIC", "organism": "Candida mycoderma", "value": "16 µg/mL"}
{"SMILES": "CC(=O)CC(C)n1c2c(=O)c3ccccc3c(=O)c=2oc2ccc(Cl)cc21", "strain or isolate": "VKM Y-70", "read-out": "MIC", "organism": "Candida tenuis", "value": "125 µg/mL"}
{"SMILES": "CC(C)CC(O)C(=O)O", "method": "broth dilution / visual reading", "strain or isolate": "EO 323", "read-out": "MFC100", "organism": "Candida dubliniensis", "value": "72000 µg/mL"}
{"SMILES": "Cc1cc(=O)oc2cc(OCC(O)Cn3cnc4ccccc43)cc(OCC(O)Cn3cnc4ccccc43)c12", "read-out": "MIC", "organism": "Candida mycoderma", "value": "64 µg/mL"}
{"SMILES": "O=C1c2ccccc2CC1Cn1ccnc1", "method": "broth dilution", "strain or isolate": "RTCC 1019", "read-out": "MIC", "organism": "Candida kefyr", "value": "64 µg/mL"}
{"SMILES": "CCOC(=O)CC(C)n1c2c(=O)c3ccccc3c(=O)c=2oc2ccccc21", "strain or isolate": "VKM Y-70", "read-out": "MIC", "organism": "Candida tenuis", "value": "250 µg/mL"}
{"SMILES": "Cc1nc2c(s1)C(=O)C(Nc1ccc(C#N)cc1)=C(Cl)C2=O", "method": "broth dilution", "strain or isolate": "KCCM 50662", "read-out": "MIC", "organism": "Candida utilis", "value": "25 µg/mL"}
{"SMILES": "COc1ccc(C=NNC(=O)CC(C)n2c3c(=O)c4ccccc4c(=O)c=3oc3ccccc32)cc1", "strain or isolate": "VKM Y-70", "read-out": "MIC", "organism": "Candida tenuis", "value": "125 µg/mL"}
{"SMILES": "C=CCc1ccc(OC)c(OC)c1", "method": "turbidity", "strain or isolate": "2857", "read-out": "MIC90", "organism": "Candida tropicalis", "value": "350 µg/mL"}
{"SMILES": "CCc1c(OC)ccc2sc(C)nc12", "method": "broth dilution", "strain or isolate": "KCCM 50662", "read-out": "MIC", "organism": "Candida utilis", "value": "50 µg/mL"}
{"SMILES": "CCCCCCCn1cc[n+](COCCCCCOC[n+]2ccn(CCCCCCC)c2)c1", "method": "agar diffusion", "strain or isolate": "ATCC 6258", "read-out": "MIC100", "organism": "Candida krusei", "value": "75 µM"}
{"SMILES": "Cc1nc2c(s1)C(=O)C(Nc1ccc(C)c(C)c1)=C(Cl)C2=O", "method": "broth dilution", "strain or isolate": "KCCM 50662", "read-out": "MIC", "organism": "Candida utilis", "value": "3.2 µg/mL"}
{"SMILES": "CCOC(=O)/C=C(/C)n1c2c(=O)c3ccccc3c(=O)c=2oc2ccccc21", "strain or isolate": "VKM Y-70", "read-out": "MIC", "organism": "Candida tenuis", "value": "62.5 µg/mL"}
{"SMILES": "Fc1cc(F)c(B2Oc3ccccc3O2)c(F)c1", "method": "turbidity", "read-out": "MFC", "organism": "Candida tenuis", "value": "250 µg/mL"}
{"SMILES": "CN[C@H]1CC[C@@H](c2ccc(Cl)c(Cl)c2)c2ccccc21", "method": "broth dilution", "strain or isolate": "2-367", "read-out": "MIC90", "organism": "Candida lusitaniae", "value": "8 µg/mL"}

Again, the opening 3 rows:

SMILES,method,tested at,conditions,strain or isolate,read-out,organism,value
O=C(CCn1ccnc1)c1cccc(C(O)c2ccc(Br)cc2)c1,broth dilution,,,RTCC 1377,MIC,Candida guilliermondii,16 µg/mL
CCC(C)CC(C)CCCCCCCCC(=O)N[C@H]1C[C@@H](O)[C@H](NCCN)NC(=O)[C@@H]2[C@@H](O)CCN2C(=O)[C@H]([C@H](O)CCN)NC(=O)[C@H]([C@H](O)[C@@H](O)c2ccc(O)cc2)NC(=O)[C@@H]2C[C@@H](O)CN2C(=O)[C@H]([C@@H](C)O)NC1=O,broth dilution,,,FMR 9474,MIC,Candida lusitaniae,0.25 µg/mL
CCC(C)CC(C)CCCCCCCCC(=O)N[C@H]1C[C@@H](O)[C@H](NCCN)NC(=O)[C@@H]2[C@@H](O)CCN2C(=O)[C@H]([C@H](O)CCN)NC(=O)[C@H]([C@H](O)[C@@H](O)c2ccc(O)cc2)NC(=O)[C@@H]2C[C@@H](O)CN2C(=O)[C@H]([C@@H](C)O)NC1=O,broth dilution,,pH 4,40 isolates,MIC,Candida glabrata,0.5 µg/mL